Anti-infective test results gathered from many reports (values: NIAID ChemDB through PubChem).

All rows: toxicity to cultured cells; cell line: MT-4; measure: CC50

CCn: concentration that lowers growth or viability of the cells by n%. Conditions beyond the fields shown may differ between rows.

compound	value
CCC1(c2ccccc2)Oc2ccccc2-n2cccc2C1=O	3.3 µM
Fc1cccc(F)c1[C@@H]1SCc2nc3ccccc3n21	86.7 µM
CC(C)Cc1ccc(C(C)C(=O)O)cc1	1000 µM
N#Cc1cc(Cl)cc(Oc2cc(OCc3[nH]nc4cnccc34)ccc2Cl)c1	>8.3 µM
CC(=O)NCC(=O)N[C@H](C(=O)N[C@@H](Cc1ccccc1)C(=O)C(F)(F)CCc1ccccc1)C(C)C	>100 µM
CC(=O)ON1COC[C@H]2O[C@@H](n3cc(C)c(=O)[nH]c3=O)C[C@@H]21	207 µg/mL
Cc1cn([C@H]2C[C@H](N=[N+]=[N-])[C@@H](CO)O2)c(=O)[nH]c1=O	3.2 µM
CC(C)=CCN1[C@@H](C)Cn2c(=S)[nH]c3cccc(c32)[C@@H]1C	81 µM
O=C(Oc1nsnc1-c1c(Cl)cccc1Cl)N1CCCCC1	221 µM
CC(=O)O[C@@H]1C(=O)C2=C(C(=O)C[C@H]3C(C)(C)[C@@H](O)CC[C@]23C)[C@]2(C)C(=O)C[C@H]([C@@H](C)CC(=O)C[C@@H](C)C(=O)O)[C@@]12C	>1000 µM
CCC(C)Oc1cc(=O)[nH]c(Sc2ccc(C)cc2)n1	>300 µM
CC(C)=CCc1c(-c2ccc(O)cc2O)oc2c3c(cc(O)c2c1=O)OC(c1c(O)cc(O)c2c(=O)c(CC=C(C)C)c(-c4ccc(O)cc4O)oc12)C1C3C=C(C)CC1(C)C	7.2 µg/mL
C=C(C)CN1Cc2cc(Cl)cc3[nH]c(=O)n(c23)CC1C	17 µM
C[C@H](CC[C@H](O)C(C)(O)CO)[C@H]1CC[C@@]2(C)C3=CCC4C(C)(C)[C@@H](O)CC[C@]4(C)C3=CC[C@]12C	>1000 µM
CC1(C)S[C@H]([C@H](NC(=O)Cc2ccccc2)C(=O)NCc2ccccc2)N[C@H]1C(=O)N[C@H](Cc1ccccc1)C(O)CNC(=O)Cc1ccccc1	>100 µM
O=c1[nH]cnc2c1ncn2[C@H]1CC[C@@H](CO)O1	1000 µM
CCC(C)Oc1cc(N)nc(S(=O)(=O)c2cccc(OC)c2)n1	99.5 µM
Cc1cn([C@H]2C[C@H](N=[N+]=[N-])[C@@H](CO)[Se]2)c(=O)[nH]c1=O	>100 µM
C#C[C@]1(CO)O[C@@H](n2cc(CC)c(=O)[nH]c2=O)C[C@@H]1O	>400 µM
CO[Si](OC[C@H]1O[C@@H](n2cc(C)c(=O)n(C)c2=O)[C@H](O[Si](C)(C)C(C)(C)C)C12OS(=O)(=O)C=C2N)(c1ccccc1)C(C)(C)C	4.8 µM
Nc1ccn([C@H]2CC[C@@H](CO)O2)c(=O)n1	>100 µM
C[C@H](CCC=C(CO)CO)[C@H]1C[C@H](O)[C@@]2(C)C3=CC[C@H]4C(C)(C)C(=O)CC[C@]4(C)C3=CC[C@]12C	500 µM
CCCN(C)C(=O)Oc1nsnc1-c1c(Cl)cccc1Cl	28 µM
CCC(C)Oc1cc(N)nc(Sc2ccc(N)cc2)n1	200 µM
C#CC1(CO)O[C@@H](n2cnc3c(N)ncnc32)[C@H](O)[C@@H]1O	>400 µM
CN(C)C(=O)Oc1nsnc1-c1ccc(Cl)c(Cl)c1	315 µM
CC(C)c1c(CO)cn(Cc2ccncc2)c1Sc1cc(Cl)cc(Cl)c1	>200 µM
CC1(C)S[C@H]([C@H](NC(=O)Cc2ccccc2)C(=O)NCc2ccccc2)N[C@H]1C(=O)N[C@H](Cc1ccccc1)[C@H](O)CC(=O)N[C@@H](CO)c1ccccc1	>100 µM
CCC(C)Oc1nc(N)cc(S(=O)(=O)c2cc(C)cc(C)c2)n1	33 µM
Cc1cn([C@@H]2O[C@H](CO[Si](C)(C)C(C)(C)C)C3(OS(=O)(=O)C=C3N)[C@H]2O[Si](C)(C)C(C)(C)C(C)C)c(=O)n(C)c1=O	62 µM
O=C1Nc2cscc2S(=O)(=O)N1c1ccc(F)cc1	435.8 µM
CCC(C)Oc1cc(=O)[nH]c(Sc2ccccc2Cl)n1	150 µM
CC1(C)S[C@H]([C@H](NC(=O)Cc2ccccc2)C(=O)NCc2ccccc2)N[C@H]1C(=O)N[C@H](Cc1ccccc1)[C@H](O)CC(N)=O	>100 µM
C[C@H](CC(=O)C[C@@H](C)[C@H]1C[C@H](O)[C@@]2(C)C3=C(C(=O)C[C@]12C)[C@@]1(C)CCC(=O)C(C)(C)[C@@H]1C[C@@H]3O)C(=O)O	>1000 µM
O=C1Nc2cscc2S(=O)(=O)N1Cc1ccccc1	78.8 µM
Cc1cn([C@H]2C[C@H](N=[N+]=[N-])[C@@H](COP(=O)(OCCSC(=O)C(C)(C)O)OCCSC(=O)C(C)(C)O)O2)c(=O)[nH]c1=O	>100 µM
CC(=O)OC1C(=O)C2=C(C(=O)CC3C(C)(C)[C@@H](O)CC[C@]23C)[C@]2(C)[C@H](O)C[C@H]([C@H](C)CC(=O)CC(C)C(=O)O)[C@@]12C	>1000 µM
C#C[C@]1(CO)O[C@@H](n2cc(C)c(=O)[nH]c2=O)[C@@H](O)[C@@H]1O	>400 µM
CC(Cc1ccc(O)c(O)c1)C(C)Cc1ccc(O)c(O)c1	>10 µM
C[C@H]1CN(CCC2CC2)Cc2cc(Cl)cc3[nH]c(=S)n1c23	>810 µM
CC(C)c1c(CO)cn(Cc2ccncc2)c1S(=O)(=O)c1ccccc1	≥200 µM
O=c1c(O)c(-c2ccc(O)cc2)oc2cc(O)cc(O)c12	36 µg/mL
CC1(C)S[C@H]([C@H](NC(=O)Cc2ccccc2)C(=O)NCc2ccccc2)N[C@H]1C(=O)N[C@H](Cc1ccccc1)[C@H](O)CC(=O)N[C@@H](CO)Cc1ccccc1	>100 µM
Cc1cn([C@@H]2O[C@H](CO[Si](C)(C)C(C)(C)C)C3(OS(=O)(=O)C=C3N)[C@H]2O[Si](C)(C)C(C)(C)C)c(=O)n(C)c1=O	14 µM
COc1ccc(CN2C(=O)Nc3cscc3S2(=O)=O)c(OC)c1	705.4 µM
Cc1cn([C@@H]2O[C@H](COC(=O)C(C)(C)C)C3(OS(=O)(=O)C=C3N)[C@H]2O[Si](C)(C)C(C)(C)C)c(=O)[nH]c1=O	85 µM
O=c1ccn([C@H]2CC[C@@H](CO)O2)c(=O)[nH]1	>250 µM
CC(C)=CCN1Cc2cc(Cl)c(Cl)c3[nH]c(=S)n(c23)C[C@@H]1C	45 µM
CC(C)[C@H](NC(=O)CNC(=O)OCc1ccccc1)C(=O)N[C@@H](Cc1ccccc1)C(=O)C(F)(F)CCc1ccccc1	>100 µM
Nc1nc2c(ncn2[C@H]2CC[C@@H](CO)O2)c(=O)[nH]1	486 µM
OCc1cn(Cc2ccncc2)c(Sc2ccccc2)c1-c1ccccc1	>200 µM
COc1ccc(-c2coc3cc(O)c(OC)cc3c2=O)cc1	>100 µg/mL
Nc1ncnc2c1ncn2[C@H]1CC[C@@H](CO)O1	890 µM
CN(C)C(=O)Oc1nsnc1-c1ccccc1Cl	162 µM
CC(=O)NC1=CS(=O)(=O)OC12[C@@H](COCc1ccccc1)O[C@@H](n1cc(C)c(=O)[nH]c1=O)[C@@H]2OC(C)=O	>160 µM
CN1C(=O)N(Cc2ccccc2)S(=O)(=O)c2csc([N+](=O)[O-])c21	37.1 µM
CC(C)c1c(COC(N)=O)cn(Cc2ccncc2)c1Sc1cc(Cl)cc(Cl)c1	>200 µM
CCN1C(=O)N(Cc2ccccc2)S(=O)(=O)c2cscc21	775.4 µM
C#CC1(CO)O[C@@H](n2c(C)nc3c(N)ncnc32)[C@H](O)[C@@H]1O	>400 µM
CCC(C)Oc1cc(N)nc(Sc2ccc(F)cc2)n1	67.5 µM
CCN(CC)C(=O)Oc1nsnc1-c1c(Cl)cccc1Cl	314 µM
O=C1Nc2cscc2S(=O)(=O)N1c1ccccc1Br	>695 µM
Nc1nc2c(ncn2[C@H]2C=C[C@@H](CO)O2)c(=O)[nH]1	11 µM
NC(=O)CN1C(=O)N(Cc2ccccc2)c2cscc2S1(=O)=O	>355.7 µM
COc1c(O)c(Br)c2c(c1OC)-c1c(c(Br)c(O)c(OC)c1OC)C[C@H](C)[C@H](C)C2	21.1 µM
Nc1ccn([C@H]2C=C[C@@H](CO)O2)c(=O)n1	7.9 µM
CC(C)=CCN1Cc2cc(Cl)cc3[nH]c(=S)n(c23)C[C@H]1C	19 µM
CC(C)=CCc1c(CCCc2ccc(O)cc2O)cc(O)c(O)c1CC=C(C)C	9 µg/mL
CCC(C)Oc1cc(N)nc(S(=O)(=O)c2cccc(C)c2)n1	97 µM
CC(C)=CCN1Cc2cc(Cl)cc3[nH]c(=S)n(c23)C[C@@H]1C	34 µM
C#CC1(CO)O[C@@H](n2cc(C)c(=O)[nH]c2=O)[C@H](O)[C@@H]1O	>400 µM
CCC(C)Oc1cc(=O)n(C)c(Sc2ccccc2)n1	>200 µM
O=c1[nH]cnc2c1ncn2[C@H]1CC[C@@H](CO)O1	>200 µg/mL
CCC(=CCN1Cc2c(C)ccc3[nH]c(=S)n(c23)C[C@@H]1C)CC	80 µM

11 of the rows above, restated:

compound | value
CC(C)=CCN1Cc2cc(Cl)c(Cl)c3[nH]c(=S)n(c23)C[C@@H]1C | 45 µM
CC(C)c1c(CO)cn(Cc2ccncc2)c1S(=O)(=O)c1ccccc1 | ≥200 µM
Cc1cn([C@H]2C[C@H](N=[N+]=[N-])[C@@H](CO)[Se]2)c(=O)[nH]c1=O | >100 µM
CC(C)=CCN1[C@@H](C)Cn2c(=S)[nH]c3cccc(c32)[C@@H]1C | 81 µM
C#C[C@]1(CO)O[C@@H](n2cc(C)c(=O)[nH]c2=O)[C@@H](O)[C@@H]1O | >400 µM
CCC(C)Oc1cc(N)nc(S(=O)(=O)c2cccc(OC)c2)n1 | 99.5 µM
CC1(C)S[C@H]([C@H](NC(=O)Cc2ccccc2)C(=O)NCc2ccccc2)N[C@H]1C(=O)N[C@H](Cc1ccccc1)C(O)CNC(=O)Cc1ccccc1 | >100 µM
Nc1nc2c(ncn2[C@H]2CC[C@@H](CO)O2)c(=O)[nH]1 | 486 µM
CCC(C)Oc1cc(N)nc(Sc2ccc(N)cc2)n1 | 200 µM
Fc1cccc(F)c1[C@@H]1SCc2nc3ccccc3n21 | 86.7 µM
CC1(C)S[C@H]([C@H](NC(=O)Cc2ccccc2)C(=O)NCc2ccccc2)N[C@H]1C(=O)N[C@H](Cc1ccccc1)[C@H](O)CC(N)=O | >100 µM